Values quoted from earlier work, collected in publication PMC6259134, “Synthesis, Antimycobacterial, Antifungal and Photosynthesis-Inhibiting Activity of Chlorinated N-phenylpyrazine-2-carboxamides” (Molecules, 2010).

Test system: photosystem II (PS II)
Parameters: method as in ref 8 = [8]; 8. Doležal M. Kráľová K. Šeršeň F. Miletín M. The site of action of some anilides of pyrazine-2-carboxylic acids in the photosynthetic apparatus Folia Pharm. Univ. Carol. 2001 26 13 20
Settings: cited from earlier work

Compound	interaction with PS II intermediates
CC(C)(C)c1ncc(C(=O)Nc2ccc(O)cc2)nc1Cl [6-chloro-5-tert-butyl-N-(4-hydroxyphenyl)pyrazine-2carboxamide]	interacted only with the D^+ intermediate
CC(C)(C)c1ncc(C(=O)Nc2cc(O)cc(Cl)c2)nc1Cl [6-chloro-5-tert-butyl-N-(5-chloro-3-hydroxyphenyl)pyrazine-2carboxamide]	interacted only with the D^+ intermediate
